# Article PMC2690590, “Functional recombinant MHC class II molecules and high-throughput peptide-binding assays” (Immunome Research, 2009)
# Molecular target: DQA1*0501/DQB1*0201 (human)
# Test: AlphaScreen or HTRF
substance,measurement,value
6xH Influenza A (PR8) HA 109–119 peptide …,Kd,3.91 µM
